Assay results taken from PMC3392236.
The exact form of at least one protein or probe is not confirmed. Where cells or extracts were used, other partners may take part. For some of these results: At least one verdict was read from the data and is not stated in words by the source.

Columns and labels:
[1] = tested on: USF-1 + USF-2; test: EMSA supershift; details: toxin B-treated HeLa nuclear extract, anti-USF-1 or anti-USF-2; 5% nondenaturing PAGE in 0.5x TBE (25 mM Tris-HCl, 25 mM boric acid, 0.5 mM EDTA); HeLa nuclear extracts, toxin B 0.5 h; protein in an extract; label: 32P (unlabeled as competitor)
[2] = tested on: USF-1 + USF-2; test: competition EMSA; details: 5% nondenaturing PAGE in 0.5x TBE (25 mM Tris-HCl, 25 mM boric acid, 0.5 mM EDTA), HeLa nuclear extracts, toxin B 0.5 h, protein in an extract
[3] = 100-fold excess cold probe vs labeled GILZ -63/-37, competes, label: none (cold competitor)

Sequence | binding result [1] | binding result ([2]; 100-fold excess cold self-competitor abrogates binding, label: 32P (unlabeled as competitor)) | binding result [2, 3]
CCCCTGACGCCATGTGACGCAGCCGG (double strand) [GILZ -63/-37] | binds | binds | 
CCCCTGACGCCATGTGGTATAGCCGG (double strand) [CRE II mut] |  |  | binds
CCCCTTGCGCCATGTGACGCAGCCGG (double strand) [CRE I mut] |  |  | binds
